Measured data: PubChem BioAssay AID1224833 (University of Georgia, 2016)

Screen: 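Host factors restraining rotavirus as candidate antiviral genes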 (primary screen)
System: monkey MA104 kidney cells
Reagents: siRNA pool against human genes, 50 nM
Timing: 48 h knock-down before infection; read 24 h after infection
Treatment: infection with rotavirus strain RV3 two days after transfection; infectious dose for this stage not given
Measured: 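Rotavirus antigen per well by fluorescent immunoassay, normalised to non-targeting control wells on each plate and given as a standard z-score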
Direction: z-score vs non-targeting control: higher = more rotavirus replication than with non-targeting control
Rule for the call: In these data the active calls have z-score vs non-targeting control at about -1 or lower, or at about 1 or higher
Calls: active = z-score beyond 1 either way; inactive = z-score within 1 of zero
In all, the deposit lists about 12,000 reagents; shown is a part drawn at random. About 5,600 of all reagents (46%) were called active. 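Active calls cover z-scores past 1 in both directions, so they include lowered as well as raised rotavirus replication.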

LPIN3 → z-score vs non-targeting control = 0.642; activity call = inactive
OAZ3 → z-score vs non-targeting control = -1.61; activity call = active
ECH1 → z-score vs non-targeting control = 0.879; activity call = inactive
PMFBP1 → z-score vs non-targeting control = 0.989; activity call = inactive
ODAD4 → z-score vs non-targeting control = -1.76; activity call = active
ANP32D → z-score vs non-targeting control = -0.0974; activity call = inactive
TMTC3 → z-score vs non-targeting control = -0.867; activity call = inactive
GORASP1 → z-score vs non-targeting control = 1.29; activity call = active
ZFR2 → z-score vs non-targeting control = -2.1; activity call = active
SAR1A → z-score vs non-targeting control = 0.715; activity call = inactive
THUMPD3 → z-score vs non-targeting control = -1.44; activity call = active
TECRL → z-score vs non-targeting control = -1.47; activity call = active
CDV3 → z-score vs non-targeting control = 1.9; activity call = active
SAMD7 → z-score vs non-targeting control = 0.44; activity call = inactive
IL2RG → z-score vs non-targeting control = 1.47; activity call = active
MYOZ3 → z-score vs non-targeting control = 0.925; activity call = inactive
FAM171A1 → z-score vs non-targeting control = -1.81; activity call = active
MKX → z-score vs non-targeting control = -0.351; activity call = inactive
SYTL1 → z-score vs non-targeting control = -0.566; activity call = inactive
OARD1 → z-score vs non-targeting control = -1.98; activity call = active
RASGEF1C → z-score vs non-targeting control = 0.178; activity call = inactive
TAT → z-score vs non-targeting control = -0.949; activity call = inactive
NUP107 → z-score vs non-targeting control = 2.24; activity call = active
AAMDC → z-score vs non-targeting control = -0.872; activity call = inactive
DDX25 → z-score vs non-targeting control = -1.08; activity call = active
NUFIP1 → z-score vs non-targeting control = 0.22; activity call = inactive
WASF3 → z-score vs non-targeting control = -1.87; activity call = active
PM20D2 → z-score vs non-targeting control = -0.685; activity call = inactive
ARSK → z-score vs non-targeting control = 1.21; activity call = active
CTNNBIP1 → z-score vs non-targeting control = -1.84; activity call = active
PDCD11 → z-score vs non-targeting control = -1.13; activity call = active
LGALS14 → z-score vs non-targeting control = -0.0979; activity call = inactive

Ordered by “z-score vs non-targeting control” (lowest first): 3 of the entries above.
CTNNBIP1 → z-score vs non-targeting control = -1.84; activity call = active
PM20D2 → z-score vs non-targeting control = -0.685; activity call = inactive
ARSK → z-score vs non-targeting control = 1.21; activity call = active
